Here are results for 1 substance from patent US20140120113A1.

Experiment [1] addresses HA of influenza virus A/Mallard/Astrakhan/263/1982 (H14) (Influenza A virus A/mallard/Astrakhan/263/1982 (H14N5)). The experiment is described as follows: cell-based or functional assay.
The target of experiment [2] is HA of influenza virus A/New York/107/2003 (H7) (Influenza A virus A/New York/107/2003 (H7N7)). In words: cell-based or functional assay.

For the substance CR9114, the geomean IC50, virus neutralization assay (VNA) in experiment [1] and in experiment [2] was more than 100 µg/mL in each case.
